Experimental data: US20050240009A1, “T-cell epitopes in staphylococcal enterotoxin b” (published 2005)

Test system: human T-cells (PBMC from naïve donors)
Conditions: for number of reactive donor samples: PBMC from 20 naïve donors; for SI per responsive sample: Stimulation index, mean of triplicate determinations per responsive donor sample, peptides tested at 1uM and 5uM, higher of the two determinations, 7 days

With ENMKVLYDDNHVSAI the “number of reactive donor samples” value was “two” and the “SI per responsive sample” value was 4.4 and 3.1.
GLMENMKVLYDDNHV was tested, and the “number of reactive donor samples” value was “one” and the “SI per responsive sample” value was 8.1.
KFTGLMENMKVLYDD was tested, and the “number of reactive donor samples” value was “two”.

Values joined by “and” are separate entries in the source; they are usually repeats but may differ in a detail not shown here. Equal values may be shown once.
